Measurements reported in ChEMBL document CHEMBL4811225 (J Med Chem, 2021).

Protein sequences, listed by entry. Tags and fused reporters are not part of them.
UniProt P30926, whole entry, looked up: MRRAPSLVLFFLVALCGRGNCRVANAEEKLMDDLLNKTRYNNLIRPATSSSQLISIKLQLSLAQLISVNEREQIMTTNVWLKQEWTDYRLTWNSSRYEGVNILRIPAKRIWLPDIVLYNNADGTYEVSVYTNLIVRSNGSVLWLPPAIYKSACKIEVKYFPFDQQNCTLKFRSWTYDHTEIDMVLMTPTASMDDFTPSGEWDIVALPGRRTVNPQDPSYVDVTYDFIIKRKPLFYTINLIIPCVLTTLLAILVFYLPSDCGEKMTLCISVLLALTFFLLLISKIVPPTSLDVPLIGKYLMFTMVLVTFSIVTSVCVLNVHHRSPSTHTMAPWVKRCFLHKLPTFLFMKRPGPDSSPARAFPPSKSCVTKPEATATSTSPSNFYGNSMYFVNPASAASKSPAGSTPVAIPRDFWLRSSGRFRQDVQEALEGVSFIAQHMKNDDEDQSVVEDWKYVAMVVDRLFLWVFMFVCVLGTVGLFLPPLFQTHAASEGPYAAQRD
UniProt P32297, whole entry, looked up: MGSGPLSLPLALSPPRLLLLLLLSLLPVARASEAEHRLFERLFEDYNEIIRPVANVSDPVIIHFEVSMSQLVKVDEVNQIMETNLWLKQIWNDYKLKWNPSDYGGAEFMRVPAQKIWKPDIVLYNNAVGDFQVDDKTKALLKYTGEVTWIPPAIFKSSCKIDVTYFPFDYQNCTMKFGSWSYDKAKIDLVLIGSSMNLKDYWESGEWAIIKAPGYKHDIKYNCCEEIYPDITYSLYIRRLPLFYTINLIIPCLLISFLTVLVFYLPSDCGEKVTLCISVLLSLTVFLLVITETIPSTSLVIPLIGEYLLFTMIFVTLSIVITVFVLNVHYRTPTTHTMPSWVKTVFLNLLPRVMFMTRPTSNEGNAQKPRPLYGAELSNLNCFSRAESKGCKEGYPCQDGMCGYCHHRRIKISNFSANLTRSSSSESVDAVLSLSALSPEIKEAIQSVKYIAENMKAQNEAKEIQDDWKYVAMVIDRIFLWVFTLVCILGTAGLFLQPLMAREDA
UniProt Q15825, whole entry, looked up: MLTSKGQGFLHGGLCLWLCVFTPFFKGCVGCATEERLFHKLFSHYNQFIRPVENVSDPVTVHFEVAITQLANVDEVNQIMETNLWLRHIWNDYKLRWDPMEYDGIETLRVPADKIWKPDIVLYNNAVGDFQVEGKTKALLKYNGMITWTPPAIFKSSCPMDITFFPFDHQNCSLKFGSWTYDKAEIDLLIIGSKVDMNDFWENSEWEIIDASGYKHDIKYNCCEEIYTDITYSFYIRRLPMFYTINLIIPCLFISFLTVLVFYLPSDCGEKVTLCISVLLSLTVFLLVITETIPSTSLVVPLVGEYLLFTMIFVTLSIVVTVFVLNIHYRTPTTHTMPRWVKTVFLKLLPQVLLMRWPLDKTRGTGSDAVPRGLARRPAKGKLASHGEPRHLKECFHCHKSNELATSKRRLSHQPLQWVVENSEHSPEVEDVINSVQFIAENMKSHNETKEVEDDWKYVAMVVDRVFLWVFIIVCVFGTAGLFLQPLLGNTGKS
UniProt P04757, whole entry, looked up: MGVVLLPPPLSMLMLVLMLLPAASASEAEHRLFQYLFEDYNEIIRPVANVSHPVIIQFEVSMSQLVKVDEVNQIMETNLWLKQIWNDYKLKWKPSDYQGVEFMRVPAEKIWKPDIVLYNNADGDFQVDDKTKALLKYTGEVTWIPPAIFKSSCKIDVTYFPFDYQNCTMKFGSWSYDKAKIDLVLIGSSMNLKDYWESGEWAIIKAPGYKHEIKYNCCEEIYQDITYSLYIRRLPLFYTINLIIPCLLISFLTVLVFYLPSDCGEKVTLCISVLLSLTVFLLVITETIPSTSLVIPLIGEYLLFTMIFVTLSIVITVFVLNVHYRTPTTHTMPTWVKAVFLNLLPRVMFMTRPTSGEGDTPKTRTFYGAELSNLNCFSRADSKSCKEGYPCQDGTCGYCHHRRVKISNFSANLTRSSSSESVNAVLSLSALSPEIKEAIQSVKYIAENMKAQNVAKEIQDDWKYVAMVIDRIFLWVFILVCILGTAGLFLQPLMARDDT
UniProt P12392, whole entry, looked up: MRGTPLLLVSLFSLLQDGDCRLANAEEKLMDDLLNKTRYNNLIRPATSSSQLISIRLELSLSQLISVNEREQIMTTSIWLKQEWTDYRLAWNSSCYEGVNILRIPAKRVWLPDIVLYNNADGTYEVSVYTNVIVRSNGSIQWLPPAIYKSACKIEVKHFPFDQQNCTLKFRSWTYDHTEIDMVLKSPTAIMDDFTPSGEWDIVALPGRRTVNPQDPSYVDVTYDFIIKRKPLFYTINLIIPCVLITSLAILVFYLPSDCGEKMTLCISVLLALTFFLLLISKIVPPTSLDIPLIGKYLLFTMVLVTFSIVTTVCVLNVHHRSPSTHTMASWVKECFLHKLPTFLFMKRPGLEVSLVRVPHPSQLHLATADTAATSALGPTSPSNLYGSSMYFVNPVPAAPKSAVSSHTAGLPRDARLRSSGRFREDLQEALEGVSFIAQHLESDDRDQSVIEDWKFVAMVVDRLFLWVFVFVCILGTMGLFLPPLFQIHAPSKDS
UniProt P43143, whole entry, looked up: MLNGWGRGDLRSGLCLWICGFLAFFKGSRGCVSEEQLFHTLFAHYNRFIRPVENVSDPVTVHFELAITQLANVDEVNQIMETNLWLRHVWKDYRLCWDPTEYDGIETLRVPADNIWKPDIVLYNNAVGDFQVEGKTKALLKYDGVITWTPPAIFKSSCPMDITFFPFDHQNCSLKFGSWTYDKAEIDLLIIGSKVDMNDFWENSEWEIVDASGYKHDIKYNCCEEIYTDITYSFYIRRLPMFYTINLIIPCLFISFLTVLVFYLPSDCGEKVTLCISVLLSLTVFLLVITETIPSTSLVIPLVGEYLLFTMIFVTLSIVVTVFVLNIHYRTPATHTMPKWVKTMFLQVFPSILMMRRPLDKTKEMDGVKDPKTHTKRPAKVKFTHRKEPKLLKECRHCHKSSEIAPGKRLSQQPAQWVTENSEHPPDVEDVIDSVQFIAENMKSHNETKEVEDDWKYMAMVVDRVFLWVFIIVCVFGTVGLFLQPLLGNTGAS

Experiments:
Assay type in all cases: cell-based
Settings in all cases: Oocyte
[1] = target: T1, Nicotinic acetylcholine receptor alpha6/alpha3/beta4 (Homo sapiens, UniProt P30926+P32297+Q15825); experiment: Inhibition of human alpha6/alpha3beta4 nAChR expressed in Xenopus laevis oocytes assessed as inhibition of acetylcholine-induced current response measured after 5 min by two-electrode voltage-clamp relative to peIA
[2] = target: T2, Nicotinic acetylcholine receptor alpha6/alpha3/beta4 (Rattus norvegicus) (UniProt P04757+P12392+P43143); experiment: Inhibition of rat alpha6/alpha3beta4 nAChR expressed in Xenopus laevis oocytes assessed as inhibition of acetylcholine-induced current response measured after 5 min by two-electrode voltage-clamp method relative to peIA
[3] = target: T2, Nicotinic acetylcholine receptor alpha6/alpha3/beta4 (Rattus norvegicus); experiment: Inhibition of rat alpha6/alpha3beta4 nAChR expressed in Xenopus laevis oocytes assessed as inhibition of acetylcholine-induced current response by measuring fold change measured after 5 min by two-electrode voltage-clamp method relative to peIA
[4] = target: T1, Nicotinic acetylcholine receptor alpha6/alpha3/beta4; experiment: Inhibition of human alpha6/alpha3beta4 nAChR expressed in Xenopus laevis oocytes assessed as inhibition of acetylcholine-induced current response by measuring fold change measured after 5 min by two-electrode voltage-clamp method relative to peIA

Row | Structure (SMILES) | deltalogIC50 [1] | deltalogIC50 [2] | fold change (FC) [3] | fold change (FC) [4]
1 | CC(C)C[C@@H]1NC(=O)[C@H](CC(N)=O)NC(=O)[C@@H]2CCCN2C(=O)[C@H](Cc2cnc[nH]2)NC(=O)[C@H](CC(N)=O)NC(=O)[C@H](C(C)C)NC(=O)[C@H](CO)NC(=O)[C@@H]2CSSC[C@H](NC(=O)CN)C(=O)N[C@@H](CSSC[C@@H](C(N)=O)NC1=O)C(=O)N[C@@H](CO)C(=O)N[C@@H](Cc1cnc[nH]1)C(=O)N1CCC[C@H]1C(=O)N[C@@H](C)C(=O)N2 | 0.4 | 0.1 |  | 
2 | CC(C)C[C@@H]1NC(=O)[C@H](CCC(=O)O)NC(=O)[C@H](C)NC(=O)[C@H](Cc2cnc[nH]2)NC(=O)[C@H](CC(N)=O)NC(=O)[C@H](C(C)C)NC(=O)[C@H](CO)NC(=O)[C@@H]2CSSC[C@H](NC(=O)CN)C(=O)N[C@@H](CSSC[C@@H](C(N)=O)NC1=O)C(=O)N[C@@H](CO)C(=O)N[C@@H](Cc1cnc[nH]1)C(=O)N1CCC[C@H]1C(=O)N[C@@H](C)C(=O)N2 | 1.1 | 0.5 | 3 | 
3 | CC(C)C[C@@H]1NC(=O)[C@H](CCC(=O)O)NC(=O)[C@@H]2CCCN2C(=O)[C@H](Cc2cnc[nH]2)NC(=O)[C@H](CC(N)=O)NC(=O)[C@H](CCCNC(=N)N)NC(=O)[C@H](CO)NC(=O)[C@@H]2CSSC[C@H](NC(=O)CN)C(=O)N[C@@H](CSSC[C@@H](C(N)=O)NC1=O)C(=O)N[C@@H](CO)C(=O)N[C@@H](Cc1cnc[nH]1)C(=O)N1CCC[C@H]1C(=O)N[C@@H](C)C(=O)N2 | 1.6 | 1.1 |  | 
4 | CC(C)C[C@@H]1NC(=O)[C@H](CCC(=O)O)NC(=O)[C@@H]2CCCN2C(=O)[C@H](Cc2cnc[nH]2)NC(=O)[C@H](CC(N)=O)NC(=O)[C@H](C(C)C)NC(=O)[C@H](CCCNC(=N)N)NC(=O)[C@@H]2CSSC[C@H](NC(=O)CN)C(=O)N[C@@H](CSSC[C@@H](C(N)=O)NC1=O)C(=O)N[C@@H](CO)C(=O)N[C@@H](Cc1cnc[nH]1)C(=O)N1CCC[C@H]1C(=O)N[C@@H](C)C(=O)N2 | 1.2 | 1.9 |  | 14
5 | CC(C)C[C@@H]1NC(=O)[C@H](CCC(=O)O)NC(=O)[C@@H]2CCCN2C(=O)[C@H](Cc2cnc[nH]2)NC(=O)[C@H](CC(N)=O)NC(=O)[C@H](C(C)C)NC(=O)[C@H](Cc2ccc(O)cc2)NC(=O)[C@@H]2CSSC[C@H](NC(=O)CN)C(=O)N[C@@H](CSSC[C@@H](C(N)=O)NC1=O)C(=O)N[C@@H](CO)C(=O)N[C@@H](Cc1cnc[nH]1)C(=O)N1CCC[C@H]1C(=O)N[C@@H](C)C(=O)N2 | 0.7 | -0.2 |  | 5
6 | CC(C)C[C@@H]1NC(=O)[C@H](CCC(=O)O)NC(=O)[C@@H]2CCCN2C(=O)[C@H](Cc2cnc[nH]2)NC(=O)[C@H](CC(N)=O)NC(=O)[C@H](C)NC(=O)[C@H](CO)NC(=O)[C@@H]2CSSC[C@H](NC(=O)CN)C(=O)N[C@@H](CSSC[C@@H](C(N)=O)NC1=O)C(=O)N[C@@H](CO)C(=O)N[C@@H](Cc1cnc[nH]1)C(=O)N1CCC[C@H]1C(=O)N[C@@H](C)C(=O)N2 | 0.5 | 0.1 |  | 
7 | CC(C)[C@@H]1NC(=O)[C@H](CO)NC(=O)[C@@H]2CSSC[C@H](NC(=O)CN)C(=O)N[C@@H](CSSC[C@@H](C(N)=O)NC(=O)[C@H](C)NC(=O)[C@H](CCC(=O)O)NC(=O)[C@@H]3CCCN3C(=O)[C@H](Cc3cnc[nH]3)NC(=O)[C@H](CC(N)=O)NC1=O)C(=O)N[C@@H](CO)C(=O)N[C@@H](Cc1cnc[nH]1)C(=O)N1CCC[C@H]1C(=O)N[C@@H](C)C(=O)N2 | 1.1 | 0.3 |  | 
8 | CC(C)C[C@@H]1NC(=O)[C@H](C)NC(=O)[C@@H]2CCCN2C(=O)[C@H](Cc2cnc[nH]2)NC(=O)[C@H](CC(N)=O)NC(=O)[C@H](C(C)C)NC(=O)[C@H](CO)NC(=O)[C@@H]2CSSC[C@H](NC(=O)CN)C(=O)N[C@@H](CSSC[C@@H](C(N)=O)NC1=O)C(=O)N[C@@H](CO)C(=O)N[C@@H](Cc1cnc[nH]1)C(=O)N1CCC[C@H]1C(=O)N[C@@H](C)C(=O)N2 | 1 | 0.2 |  | 
9 | CC(C)C[C@@H]1NC(=O)[C@H](CCC(=O)O)NC(=O)[C@@H]2CCCN2C(=O)[C@H](Cc2cnc[nH]2)NC(=O)[C@H](CCCCC(=O)O)NC(=O)[C@H](C(C)C)NC(=O)[C@H](CO)NC(=O)[C@@H]2CSSC[C@H](NC(=O)CN)C(=O)N[C@@H](CSSC[C@@H](C(N)=O)NC1=O)C(=O)N[C@@H](CO)C(=O)N[C@@H](Cc1cnc[nH]1)C(=O)N1CCC[C@H]1C(=O)N[C@@H](C)C(=O)N2 | 0.4 | 0.3 |  | 3
10 | CC(C)C[C@@H]1NC(=O)[C@H](CCC(=O)O)NC(=O)[C@@H]2CCCN2C(=O)[C@H](Cc2cnc[nH]2)NC(=O)[C@H](CC(N)=O)NC(=O)[C@H](C(C)C)NC(=O)[C@H](C)NC(=O)[C@@H]2CSSC[C@H](NC(=O)CN)C(=O)N[C@@H](CSSC[C@@H](C(N)=O)NC1=O)C(=O)N[C@@H](CO)C(=O)N[C@@H](Cc1cnc[nH]1)C(=O)N1CCC[C@H]1C(=O)N[C@@H](C)C(=O)N2 | 1 | 0.5 | 3 | 
11 | CC(C)C[C@@H]1NC(=O)[C@H](CCC(=O)O)NC(=O)[C@@H]2CCCN2C(=O)[C@H](Cc2cnc[nH]2)NC(=O)[C@H](CC(N)=O)NC(=O)[C@H](C(C)C)NC(=O)[C@H](CO)NC(=O)[C@@H]2CSSC[C@H](NC(=O)CN)C(=O)N[C@@H](CSSC[C@@H](C(N)=O)NC1=O)C(=O)N[C@@H](C(C)C)C(=O)N[C@@H](Cc1cnc[nH]1)C(=O)N1CCC[C@H]1C(=O)N[C@@H](C)C(=O)N2 | 0.6 | 0.9 | 5 | 
12 | CC[C@H](C)[C@@H]1NC(=O)[C@@H]2CSSC[C@@H](C(N)=O)NC(=O)[C@H](CC(C)C)NC(=O)[C@H](CCC(=O)O)NC(=O)[C@@H]3CCCN3C(=O)[C@H](Cc3cnc[nH]3)NC(=O)[C@H](CC(N)=O)NC(=O)[C@H](C(C)C)NC(=O)[C@H](CO)NC(=O)[C@H](CSSC[C@H](NC(=O)CN)C(=O)N2)NC(=O)[C@H](C)NC(=O)[C@@H]2CCCN2C(=O)[C@H](Cc2cnc[nH]2)NC1=O | 0.7 | 1.2 | 5 | 
13 | CC(C)C[C@@H]1NC(=O)[C@H](CCC(=O)O)NC(=O)[C@@H]2CCCN2C(=O)[C@H](Cc2cnc[nH]2)NC(=O)[C@H](CC(N)=O)NC(=O)[C@H](C(C)C)NC(=O)[C@H](CO)NC(=O)[C@@H]2CSSC[C@H](NC(=O)CN)C(=O)N[C@@H](CSSC[C@@H](C(N)=O)NC1=O)C(=O)N[C@@H](C)C(=O)N[C@@H](Cc1cnc[nH]1)C(=O)N1CCC[C@H]1C(=O)N[C@@H](C)C(=O)N2 | 0.5 | 0.1 |  | 
14 | CC(C)C[C@@H]1NC(=O)[C@H](CCC(=O)O)NC(=O)[C@@H]2CCCN2C(=O)[C@H](Cc2cnc[nH]2)NC(=O)[C@H](CC(N)=O)NC(=O)[C@H](C(C)C)NC(=O)[C@H](CO)NC(=O)[C@@H]2CSSC[C@H](NC(=O)CN)C(=O)N[C@@H](CSSC[C@@H](C(N)=O)NC1=O)C(=O)N[C@@H](CC(C)C)C(=O)N[C@@H](Cc1cnc[nH]1)C(=O)N1CCC[C@H]1C(=O)N[C@@H](C)C(=O)N2 | 1.1 | 1.5 | 5 | 
15 | CC[C@H](C)[C@@H]1NC(=O)[C@H](CO)NC(=O)[C@@H]2CSSC[C@H](NC(=O)CN)C(=O)N[C@@H](CSSC[C@@H](C(N)=O)NC(=O)[C@H](CC(C)C)NC(=O)[C@H](CCC(=O)O)NC(=O)[C@@H]3CCCN3C(=O)[C@H](Cc3cnc[nH]3)NC(=O)[C@H](CC(N)=O)NC1=O)C(=O)N[C@@H](CO)C(=O)N[C@@H](Cc1cnc[nH]1)C(=O)N1CCC[C@H]1C(=O)N[C@@H](C)C(=O)N2 | 0.1 | 0.4 |  | 
16 | CC(C)[C@@H]1NC(=O)[C@H](CO)NC(=O)[C@@H]2CSSC[C@H](NC(=O)CN)C(=O)N[C@@H](CSSC[C@@H](C(N)=O)NC(=O)[C@H](CCCNC(=N)N)NC(=O)[C@H](CCC(=O)O)NC(=O)[C@@H]3CCCN3C(=O)[C@H](Cc3cnc[nH]3)NC(=O)[C@H](CC(N)=O)NC1=O)C(=O)N[C@@H](CO)C(=O)N[C@@H](Cc1cnc[nH]1)C(=O)N1CCC[C@H]1C(=O)N[C@@H](C)C(=O)N2 | 0.7 | 0.5 | < 3 | 
17 | CC(C)C[C@@H]1NC(=O)[C@H](CCC(=O)O)NC(=O)[C@@H]2CCCN2C(=O)[C@H](Cc2cnc[nH]2)NC(=O)[C@H](CC(N)=O)NC(=O)[C@H](C(C)C)NC(=O)[C@H](CO)NC(=O)[C@@H]2CSSC[C@H](NC(=O)CN)C(=O)N[C@@H](CSSC[C@@H](C(N)=O)NC1=O)C(=O)N[C@@H](CCO)C(=O)N[C@@H](Cc1cnc[nH]1)C(=O)N1CCC[C@H]1C(=O)N[C@@H](C)C(=O)N2 | 0.6 | 0.7 | 5 | 
18 | CC(C)C[C@@H]1NC(=O)[C@H](CCC(=O)O)NC(=O)[C@@H]2CCCN2C(=O)[C@H](Cc2cnc[nH]2)NC(=O)[C@H](CC(N)=O)NC(=O)[C@H](CC(C)C)NC(=O)[C@H](CO)NC(=O)[C@@H]2CSSC[C@H](NC(=O)CN)C(=O)N[C@@H](CSSC[C@@H](C(N)=O)NC1=O)C(=O)N[C@@H](CO)C(=O)N[C@@H](Cc1cnc[nH]1)C(=O)N1CCC[C@H]1C(=O)N[C@@H](C)C(=O)N2 | 0.2 | -0.3 | > 3 | 
19 | CCCC[C@@H]1NC(=O)[C@H](CO)NC(=O)[C@@H]2CSSC[C@H](NC(=O)CN)C(=O)N[C@@H](CSSC[C@@H](C(N)=O)NC(=O)[C@H](CC(C)C)NC(=O)[C@H](CCC(=O)O)NC(=O)[C@@H]3CCCN3C(=O)[C@H](Cc3cnc[nH]3)NC(=O)[C@H](CC(N)=O)NC1=O)C(=O)N[C@@H](CO)C(=O)N[C@@H](Cc1cnc[nH]1)C(=O)N1CCC[C@H]1C(=O)N[C@@H](C)C(=O)N2 | 0.3 | 0.6 |  | 
20 | CC(C)C[C@@H]1NC(=O)[C@H](CCC(=O)O)NC(=O)[C@@H]2CCCN2C(=O)[C@H](Cc2cnc[nH]2)NC(=O)[C@H](CCC(=O)O)NC(=O)[C@H](C(C)C)NC(=O)[C@H](CO)NC(=O)[C@@H]2CSSC[C@H](NC(=O)CN)C(=O)N[C@@H](CSSC[C@@H](C(N)=O)NC1=O)C(=O)N[C@@H](CO)C(=O)N[C@@H](Cc1cnc[nH]1)C(=O)N1CCC[C@H]1C(=O)N[C@@H](C)C(=O)N2 | 1 | 1.2 |  | 
